Compound potency records, mixed from different reports. Data source: NIAID ChemDB in PubChem.

Shared fields: growth or infection tests

Conditions beyond the fields shown may differ between rows. a–b is a range or a potency band. ECn: concentration that inhibits the pathogen or its effect by n%. Inhibition is in % at the dose shown (toxicity tests: loss of growth or viability). A number after MIC or MFC names an inhibition level or a share of isolates. An empty or dashed field is not shown.

Oc1cccc(C=Nc2ccccc2O)c1 ; agent: Cryptococcus neoformans ; strain or isolate: LMM 820 ; read by: broth dilution ; read-out: MIC ; result: 2.8 µg/mL
Nc1nc(=O)n([C@@H]2O[C@H](CO)[C@@H](O)[C@@H]2F)cc1I ; agent: Varicella zoster virus ; strain or isolate: Ohtomo ; cells: HELF ; read by: plaque count ; read-out: inhibition ; tested at: 0.01 µg/mL ; result: 95%
Cc1cc(CCCOc2c(C)cc(-c3noc(C(F)(F)F)n3)cc2C)on1 ; agent: Rhinovirus ; strain or isolate: Isolate 28 ; cells: OHIO HELA-I ; read by: cytopathic effect / visual reading ; read-out: EC50 ; result: 0.02 µg/mL
O=C(Nc1ccc2c(O)c(N=Nc3ccc(N=Nc4ccc(S(=O)(=O)O)cc4)cc3)c(S(=O)(=O)O)cc2c1)c1ccccc1 ; agent: Herpes simplex virus ; cells: Human conjunctiva cells ; read by: cytopathic effect ; read-out: inhibition ; tested at: 5 µg/mL ; result: 0%
O=c1[nH]c(=O)n([C@H]2C[C@H](O)[C@@H](CO)O2)cc1I ; agent: Varicella zoster virus ; strain or isolate: Asahikawa ; cells: HELF ; read by: plaque count ; read-out: inhibition ; tested at: 1 µg/mL ; result: 67%
O=S(=O)([O-])c1ccc(O)c2ccccc12 ; agent: Herpes simplex virus ; cells: Human amnion AV3 cells ; read by: cytopathic effect ; read-out: inhibition ; tested at: 50 µg/mL ; result: 0%
Cc1cn([C@@H]2O[C@H](CO)[C@@H](O)[C@@H]2F)c(=O)nc1N ; agent: Varicella zoster virus ; strain or isolate: KANNO ; cells: HELF ; read by: plaque count ; read-out: inhibition ; tested at: 0.01 µg/mL ; result: 67%
Oc1ccccc1C=Nc1ccccc1O ; agent: Cryptococcus gattii ; strain or isolate: ATCC 32608 ; read-out: MIC99 ; result: 5.7 µg/mL
C=CCc1ccc(OC)c(OC)c1 ; agent: Candida tropicalis ; strain or isolate: 3261 ; read by: turbidity ; read-out: MIC90 ; result: 350 µg/mL
Nc1nc2c(ncn2C=C2CC2CO)c(=O)[nH]1 ; agent: Human cytomegalovirus ; strain or isolate: VR4991 (ganciclovir-resistant) ; read by: plaque count ; read-out: EC90 ; result: 4.7 µM
Cc1cc(-c2ccc(N=Nc3c(S(=O)(=O)O)cc4cc(S(=O)(=O)O)cc(N)c4c3O)c(C)c2)ccc1N=Nc1c(S(=O)(=O)O)cc2cc(S(=O)(=O)O)cc(N)c2c1O ; agent: Herpes simplex virus ; cells: Human amnion AV3 cells ; read by: cytopathic effect ; read-out: inhibition ; tested at: 5 µg/mL ; result: 0%
N#Cc1ccc(CNC(=O)c2c3n(c(=O)n2-c2ccc(OCC(F)(F)F)cc2)CCN(C(=O)c2ccc(Br)c(Cl)c2)C3)c(F)c1 ; agent: Hepatitis B virus ; cells: HepG2.117 ; read by: PCR ; read-out: EC50 ; result: 0.5–5 µM
O=c1[nH]c(=O)n([C@H]2C[C@H](O)[C@@H](CO)O2)cc1/C=C/Br ; agent: Varicella zoster virus ; strain or isolate: Asahikawa ; cells: HELF ; read by: plaque count ; read-out: inhibition ; tested at: 0.1 µg/mL ; result: 100%
CCO/N=C/c1ccc(OCCC2CCN(c3ccc(Cl)nn3)CC2)cc1 ; agent: Rhinovirus ; strain or isolate: 5146 (ICAM-1 receptor group 24) ; cells: KB ; read by: neutral red ; read-out: EC50 ; result: 0.002 µM
COc1ccc(-n2c(C(=O)NCc3cccnc3)c3n(c2=O)CCN(C(=O)c2ccc(Cl)c(Cl)c2)C3)cc1 ; agent: Hepatitis B virus ; cells: HepG2.117 ; read by: PCR ; read-out: EC50 ; result: >5 µM
O=[N+]([O-])c1cc([N+](=O)[O-])c2ccc(S(=O)(=O)O)cc2c1O ; agent: Adenovirus ; strain or isolate: TYPE 3 ; cells: Human embryonic lung cells ; read by: cytopathic effect ; read-out: inhibition ; tested at: 5 µg/mL ; result: 0%
C=Cc1cn([C@@H]2O[C@H](CO)[C@@H](O)[C@@H]2O)c(=O)[nH]c1=O ; agent: Varicella zoster virus ; strain or isolate: Kawaguchi ; cells: HELF ; read by: plaque count ; read-out: inhibition ; tested at: 0.01 µg/mL ; result: 0%
CCC(CC)[C@H](NC(C)=O)[C@@H]1[C@H](O)[C@@H](C(=O)O)C[C@H]1N=C(N)N ; agent: Influenza A virus ; strain or isolate: H1N1 A/NWS/33 ; cells: MDCK ; read-out: EC50 ; result: 21 µM
CCOC(=O)c1c(C)nc(NCCCCNc2ccnc3cc(Cl)ccc23)nc1-c1ccccc1[N+](=O)[O-] ; agent: Cryptococcus neoformans ; strain or isolate: WP ; read-out: MIC99 ; result: 8 µg/mL
COc1ccc(-n2c(C(=O)NCc3ccccc3)c3n(c2=O)CCN(C(=O)c2ccc(Cl)c(Cl)c2)C3)c(C(F)(F)F)c1 ; agent: Hepatitis B virus ; cells: HepG2.117 ; read by: PCR ; read-out: EC50 ; result: >5 µM
CCOC(=O)c1cnc(NCCCCNc2ccnc3cc(Cl)ccc23)nc1C ; agent: Cryptococcus neoformans ; strain or isolate: 96806 ; read-out: MIC99 ; result: 45.3 µg/mL
O=C(Nc1c(S(=O)(=O)[O-])cc2cc(S(=O)(=O)[O-])cc(O)c2c1O)c1ccccc1 ; agent: Herpes simplex virus ; cells: Human amnion AV3 cells ; read by: cytopathic effect ; read-out: inhibition ; tested at: 50 µg/mL ; result: 0%
Oc1ccccc1N=Cc1ccccc1 ; agent: Cryptococcus neoformans ; strain or isolate: ATCC 28957 ; read-out: MIC99 ; result: 8 µg/mL
O=C(NCc1c(F)cccc1F)c1c2n(c(=O)n1-c1ccc(OC3CC3)cc1)CCN(C(=O)c1ccc(Br)c(Cl)c1)C2 ; agent: Hepatitis B virus ; cells: HepG2.117 ; read by: PCR ; read-out: EC50 ; result: 0.1–0.5 µM
O=C(O)c1cc(S(=O)(=O)[O-])ccc1O ; agent: Rhinovirus ; cells: Human embryonic lung cells ; read by: cytopathic effect ; read-out: inhibition ; tested at: 10 µg/mL ; result: 0%
Oc1ccccc1N=Cc1cccc(O)c1O ; agent: Cryptococcus gattii ; strain or isolate: LMM 818 ; read-out: MIC99 ; result: 4 µg/mL

The first 2 rows once more:

| structure | agent | strain or isolate | cells | read by | read-out | tested at | result |
|---|---|---|---|---|---|---|---|
| Oc1cccc(C=Nc2ccccc2O)c1 | Cryptococcus neoformans | LMM 820 | - | broth dilution | MIC | - | 2.8 µg/mL |
| Nc1nc(=O)n([C@@H]2O[C@H](CO)[C@@H](O)[C@@H]2F)cc1I | Varicella zoster virus | Ohtomo | HELF | plaque count | inhibition | 0.01 µg/mL | 95% |